# Experimental data from PubChem BioAssay AID214 (DTP/NCI, 2004).
# Records with an inconclusive call do not appear.
# System: B6C3F1 mice, colon carcinoma 38 s.c., T/C
# Test: NCI In Vivo Anticancer Drug Screen. Data for tumor model Colon Carcinoma 38 (subcutaneous) in B6C3F1 mice
# Details: endpoint: median tumor weight (est.), schedule: Q07DX002 (ip), vehicle: saline, higher = larger tumour
# Method: The antitumor activity of compounds was measured in mice bearing transplantable tumors. Survival or tumor size were measured and the results are expressed as the measurement made in the treated group (T) divided by the measurement made in the vehicle treated control group (C). The tumor model used in this assay is Colon Carcinoma 38 (subcutaneous) in B6C3F1 mice
compound,measurement,setting,value
O=P1(N(CCCl)CCCl)NC(SCCS(=O)(=O)O)CCO1 (stereo not drawn),T/C,dose: 50.0 mg/kg/injection,67 % of control
same,T/C,dose: 100.0 mg/kg/injection,14 % of control
same,T/C,dose: 200.0 mg/kg/injection,12 % of control
